Anti-infective test results gathered from many reports (values: NIAID ChemDB through PubChem).

All rows: tests in culture; agent: Candida albicans; read-out: MIC

Neighbouring rows are from separate reports.

structure	read by	conditions	strain	value
Cc1ccc(N2NOC(=O)C2S(=O)(=O)Nc2ccc(-n3c(-c4ccc([N+](=O)[O-])cc4)nc4ccccc4c3=O)cc2)cc1	broth dilution	-	MTCC 227	250 µg/mL
CC(=O)N1CCN(c2ccc(OC[C@H]3CO[C@](Cn4ccnc4)(c4ccc(Cl)cc4Cl)O3)cc2)CC1	agar	-	-	0.02 µM
Cc1ccc(N2NOC(=O)C2S(=O)(=O)Nc2nc(-c3ccc(F)cc3F)cs2)cc1	broth dilution	-	MTCC 227	250 µg/mL
O=C/C=C/c1ccccc1	XTT	biofilm	ATCC 90028	125 µg/mL
COc1c(C)cc2ccc(O)c(C=O)c2c1O	MTT / broth dilution	-	ATCC 90028	5 µg/mL
CN[C@@H]1[C@H](O[C@H]2[C@H](O[C@H]3[C@H](O)[C@@H](O)[C@H](N=C(N)N)[C@@H](O)[C@@H]3N=C(N)N)O[C@@H](C)[C@]2(O)C=O)O[C@@H](CO)[C@H](O)[C@H]1O	visual reading	-	ATCC 10231	250 µg/mL
O=c1c(O)cc([C@H]2Oc3cc(O)cc(O)c3C[C@H]2O)cc2c([C@H]3Oc4cc(O)cc(O)c4C[C@H]3O)cc(O)c(O)c12	turbidity	-	NCTC 3255	1024 µg/mL
C[C@@H]1[C@H](O)[C@@H](C)/C=C/C=C/CC/C=C/C=C/C=C/C=C/C(O[C@H]2O[C@H](C)[C@@H](O)[C@H](N)[C@@H]2O)CC2O[C@](O)(CC(O)C(O)CCC(O)CC(O)CC(O)CC(=O)O[C@H]1C)CC(O)C2C(=O)O	broth dilution / turbidity	-	ATCC 2091	12.5 µg/mL
CC(C)=CCC/C(C)=C/CC/C(C)=C/CO	XTT	biofilm	ATCC 90028	500 µg/mL
O=c1oc2ccccc2c(O)c1C(c1c(O)c2ccccc2oc1=O)c1coc2ccccc2c1=O	agar diffusion / agar	-	-	25 µg/mL
Cc1ccc(N2NOC(=O)C2S(=O)(=O)Nc2ccc(-n3c(-c4ccccc4)nc4ccccc4c3=O)cc2)cc1	broth dilution	-	MTCC 227	1000 µg/mL
Cc1ccc2occ(C(c3c(O)c4ccccc4oc3=O)c3c(O)c4ccccc4oc3=O)c(=O)c2c1	agar diffusion / agar	-	-	25 µg/mL
Cc1ccc(N2NOC(=O)C2S(=O)(=O)Nc2ccc(-n3c(-c4cccc([N+](=O)[O-])c4)nc4ccccc4c3=O)cc2)cc1	broth dilution	-	MTCC 227	500 µg/mL
COc1cc(C[C@@]2(O)CO[C@H](c3ccc(O)c(OC)c3)[C@H]2CO[C@@H]2O[C@@H](CO)[C@@H](O)[C@H](O)[C@H]2O)ccc1O	MTT	-	ATCC 90028	6 µg/mL
O=Cc1ccccc1O	XTT	biofilm	ATCC 90028	125 µg/mL
CO[C@H]1C[C@H](O[C@H]2CC[C@@]3(C)C(=CC[C@H]4C5=CC(=O)[C@@H]6[C@@H](C)OC(=O)[C@]56CC[C@@H]43)C2)O[C@H](C)[C@H]1O[C@H]1C[C@H](OC)[C@H](O[C@@H]2C[C@@H](OC)[C@@H](O[C@@H]3O[C@H](CO[C@@H]4O[C@H](CO)[C@@H](O)[C@H](O)[C@H]4O)[C@@H](O)[C@H](O)[C@H]3O)[C@H](C)O2)[C@@H](C)O1	broth dilution / turbidity	-	ATCC 2091	>100 µg/mL
O=C(O)/C=C/c1ccc(O)c(O)c1	XTT	biofilm	ATCC 90028	500 µg/mL
Cc1ccc(N2NOC(=O)C2S(=O)(=O)Nc2nc(-c3ccc([N+](=O)[O-])cc3)cs2)cc1	broth dilution	-	MTCC 227	1000 µg/mL
COC(=O)CCC(=O)O[C@H]1C[C@@H]2c3c(cc(OC)c4c5c(c(=O)oc34)C(=O)CC5)O[C@@H]2O1	agar	-	-	>100 µM
C=CCc1ccc(O)c(OC)c1	XTT	biofilm	ATCC 90028	500 µg/mL
CO[C@H]1C[C@H](O[C@H]2[C@@H](OC)C[C@H](O[C@H]3[C@@H](OC)C[C@H](O[C@H]4CC[C@@]5(C)C(=CC[C@H]6C7=CC(=O)[C@@H]8[C@@H](C)OC(=O)[C@]78CC[C@@H]65)C4)O[C@@H]3C)O[C@@H]2C)O[C@H](C)[C@H]1O	broth dilution / turbidity	-	ATCC 2091	>100 µg/mL
C=CCc1ccc(O)c(-c2ccc(O)c(CC=C)c2)c1	broth dilution	-	YL 346	128 µg/mL
COc1ccc(CO)cc1	XTT	biofilm	ATCC 90028	500 µg/mL
CO[C@H]1C[C@H](O[C@H]2CC[C@@]3(C)C(=CC[C@@H]4[C@@H]3CC[C@]35C(=O)O[C@H](C)[C@H]3C(=O)C[C@]45O)C2)O[C@H](C)[C@H]1O[C@H]1C[C@H](OC)[C@H](O[C@H]2C[C@H](OC)[C@H](O[C@H]3C[C@H](OC)[C@H](O[C@@H]4C[C@@H](OC)[C@@H](OC5O[C@H](CO)[C@@H](O)[C@H](O)[C@H]5O)[C@H](C)O4)[C@@H](C)O3)[C@@H](C)O2)[C@@H](C)O1	broth dilution / turbidity	-	ATCC 2091	50 µg/mL
COc1cc(/C=C/C(=O)O)ccc1O	XTT	biofilm	ATCC 90028	>4000 µg/mL
Cc1ccc(N2NOC(=O)C2S(=O)(=O)Nc2nc3cc(F)ccc3s2)cc1	broth dilution	-	MTCC 227	500 µg/mL
CO[C@H]1C[C@H](O[C@H]2CC[C@@]3(C)C(=CC[C@H]4C5=CC(=O)[C@@H]6[C@@H](C)OC(=O)[C@]56CC[C@@H]43)C2)O[C@H](C)[C@H]1O	broth dilution / turbidity	-	ATCC 2091	>100 µg/mL

An empty or dashed field is not shown.